{"source": "paper PMC7593903", "target": "T1, ZafA (UniProt A3QX02)", "T1 sequence (looked up, limits assumed)": "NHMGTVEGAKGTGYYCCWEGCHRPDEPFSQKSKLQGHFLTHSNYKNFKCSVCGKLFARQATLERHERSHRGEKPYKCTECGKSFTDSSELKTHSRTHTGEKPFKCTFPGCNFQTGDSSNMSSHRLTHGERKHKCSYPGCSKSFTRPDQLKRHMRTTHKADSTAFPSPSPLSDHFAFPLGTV", "assay": "EMSA", "settings": "copper added (partial inhibition); 10 mM Tris-HCl pH 8.0, 50 mM NaCl, 1 mM MgCl2, 500 uM EDTA, 500 uM DTT, 4% glycerol; 500 ng ZafA, 5 ng probe; 30 min at 25 C; Zn/Cu added 10 min after start of binding; recombinant protein; protein details: His-tag (pET-21(+), E. coli BL21); label: 32P; probe letters rebuilt from the primers and the genome", "note": "Construct, isoform or probe ends are uncertain for at least one entry. The comparison behind a weaker result is the experiment's own reference, which may not be listed here. Protein sequences can lack the tags named with them.", "data": [{"sequence": "AAGGGCCCAGGGCCTGTCTTGTTGTACGACTTCACTTTCTCCCAGGGTGCCACTGCTTGCTATCTCTATGTAGATAACCGCTGTCTTTCCTCTTTTTTTGACCCTTTCTTCTATTGCTCTGGTCTGCT (double strand) [CtrC promoter EMSA probe, 128 bp]", "values": [{"measurement": "binding result", "value": "binds more weakly"}]}]}
